Results reported in patent US20230234994A1, “Vasopressin-2 receptor antagonist peptides and uses thereof” (published 2023).

How the values were obtained:
Experiment in all cases: cell-based or functional assay
Tryptase gamma 1 (Human) = Tryptase gamma 1 (Human) (UniProt Q9NRR2)
Caspase 6 (Human) = Caspase 6 (Human) (UniProt P55212)
Elastase (Human) = Elastase (Human) (UniProt P08246)

Measured: Compound IC50 (M), protease activity assay

WT MQ1 peptide (prior art)
> 5e-05 M: all assays above
